Measured values taken from PubChem BioAssay AID602399 (Sanford-Burnham Center for Chemical Genomics, 2012).
The entries are a selection whose mix differs from that of the whole data set. The source made the active and inactive calls. No stated cut-off is given here; in the data, active means inhibition above about 26%; inactive means the rest.

Each compound was assayed on Nicotinate-nucleotide adenylyltransferase NadD (Staphylococcus aureus N315) (assay: S. aureus NadD enzyme activity blockers – biochemical, colorimetric, uHTS, primary screen (AID 602399)). Conditions: purified NadD enzyme, colorimetric absorbance read-out; at 20 µM; stronger effect = higher value.

Row | SMILES | inhibition
1 | O=C(NCC1(N2CCCCC2)CCCCC1)c1ccc(F)cc1 | inactive: 0.273%
2 | CCCCOc1ccc(C(=O)NCC2(N3CCOCC3)CCCCC2)cc1 | inactive: -2.22%
3 | O=P1(N(CCCl)CCCl)SCCCS1 | inactive: -1.46%
4 | CCCCn1nnnc1C(c1cc2ccccc2o1)N1CCC(n2c(=O)[nH]c3ccccc32)CC1 (centres undefined) | active: 36.4%
5 | CCOC(=O)N1CCC(Nc2ccc(F)cc2)CC1 | inactive: -1.48%
6 | COc1ccc(NC2CCN(CCc3ccccc3)CC2)c(OC)c1 | inactive: -5.81%
7 | O=c1[nH]c2ccccc2n1C1CCN(C(c2ccccc2OC(F)(F)F)c2nnnn2C2CCCCC2)CC1 (centres undefined) | inactive: 8.12%
8 | O=C(NCC1(N2CCCCC2)CCCCC1)c1ccc(Cl)nc1 | inactive: -1.78%
9 | Cc1cc(C)cc(N(C(=O)c2ccccc2)C2CCN(C(=O)OC(C)(C)C)CC2)c1 | inactive: 2.13%
10 | O=C(NCC1(N2CCOCC2)CCCCC1)c1cc2ccccc2o1 | inactive: 3.68%
11 | O=c1[nH]c2ccccc2n1C1CCN(C(c2cc3ccccc3o2)c2nnnn2C2CCCCC2)CC1 (centres undefined) | inactive: 18.9%
12 | O=C(OC1CN2CCC1CC2)C1c2ccccc2Oc2ccccc21 (centres undefined) | inactive: -6.06%
13 | N#CC1(Nc2ccccc2)CCN(Cc2ccccc2)CC1 | inactive: -3.45%
14 | O=C(NCC1(N2CCCCC2)CCCCC1)c1ccc(Cl)s1 | inactive: -2.96%
15 | COc1ccc(Cl)cc1C(=O)NCC1(N2CCOCC2)CCCCC1 | inactive: -3.31%
16 | CCOC(=O)N1CCC(Nc2ccc(OC)cc2)CC1 | inactive: -2.99%
17 | CCCCn1nnnc1C(c1ccc(OC)cc1)N1CCC(n2c(=O)[nH]c3ccccc32)CC1 (centres undefined) | inactive: -3.89%
18 | COc1ccc(C(=O)NCC2(N3CCCCC3)CCCCC2)cc1 | inactive: -9.28%
19 | CCC(c1nnnn1C1CCCC1)N1CCC(n2c(=O)[nH]c3ccccc32)CC1 (centres undefined) | inactive: 0.625%
20 | CC(C)(C)OC(=O)N1CCC(N(C(=O)c2ccccc2)c2ccc(F)cc2)CC1 | inactive: -5.02%
21 | COc1ccc(C(=O)NCC2(N3CCCCC3)CCCCC2)c(OC)c1OC | inactive: 0.177%
22 | O=C(NCC1(N2CCCCC2)CCCCC1)c1ccc(=O)[nH]c1 | inactive: 4.85%
23 | CCCCn1nnnc1C(c1cccs1)N1CCC(n2c(=O)[nH]c3ccccc32)CC1 (centres undefined) | inactive: 0.973%
24 | O=C(NCC1(N2CCCCC2)CCCCC1)c1cccs1 | inactive: -4.78%
25 | CCCCn1nnnc1C(CC)N1CCC(n2c(=O)[nH]c3ccccc32)CC1 (centres undefined) | inactive: -2.97%
26 | CSc1ccccc1C(=O)NCC1(N2CCCCC2)CCCCC1 | inactive: -6.01%
27 | Cc1cccc(NC2(C#N)CCN(Cc3ccccc3)CC2)c1 | inactive: 0.781%

Row | SMILES | inhibition
28 | O=C(NCC1(N2CCCCC2)CCCCC1)c1cncc(Br)c1 | inactive: -2.36%
29 | CN1CCC(Nc2cccc(F)c2)CC1 | inactive: 6.64%
30 | COc1ccc(C(c2nnnn2C2CCCC2)N2CCC(n3c(=O)[nH]c4ccccc43)CC2)cc1 (centres undefined) | inactive: 8.76%
31 | Cc1ccc(C(=O)NCC2(N(C)C)CCCCC2)o1 | inactive: 5.15%
32 | CCCOc1ccc(C(=O)NCC2(N(C)C)CCCCC2)cc1OC | inactive: -4.87%
33 | CC(C)c1ccc(NC2CCN(C(=O)OC(C)(C)C)CC2)cc1 | inactive: -1.2%
34 | CCCCn1nnnc1C(c1ccccc1OC(F)(F)F)N1CCC(n2c(=O)[nH]c3ccccc32)CC1 (centres undefined) | inactive: 1.78%
35 | COc1ccc(CN(CCCl)CCCl)cc1Cl | inactive: 2.71%
36 | CN(C)c1cccc(C(=O)NCC2(N3CCCCC3)CCCCC2)c1 | inactive: 1.22%
37 | COc1cc(OC)c(C(=O)NCC2(N(C)C)CCCCC2)cc1OC | inactive: -4.86%
38 | O=C(NCC1(N2CCOCC2)CCCCC1)c1cc(F)c(F)cc1Cl | inactive: -1.48%
39 | CCC(c1nnnn1C(C)(C)C)N1CCC(n2c(=O)[nH]c3ccccc32)CC1 (centres undefined) | inactive: -2.97%
40 | CCCCn1nnnc1C(c1ccnc2ccccc12)N1CCC(n2c(=O)[nH]c3ccccc32)CC1 (centres undefined) | inactive: 0.649%
41 | O=C(NCC1(N2CCCCC2)CCCCC1)c1cccc(C(F)(F)F)c1 | inactive: -1.81%
42 | O=C(NCC1(N2CCOCC2)CCCCC1)c1cc(=O)[nH]c2ccccc12 | inactive: 19.5%
43 | COc1cc(C(=O)NCC2(N3CCCCC3)CCCCC2)ccc1OC(F)F | inactive: -11%
44 | CCCCn1nnnc1C(c1cccc2ccccc12)N1CCC(n2c(=O)[nH]c3ccccc32)CC1 (centres undefined) | inactive: 21.2%
45 | CC(C)c1ccc(C(=O)NCC2(N3CCOCC3)CCCCC2)cc1 | inactive: -0.261%
46 | COc1ccc(NC2CCN(C(=O)OC(C)(C)C)CC2)cc1 | inactive: -0.177%
47 | CN1CCN(CCOC(=O)C(O)(c2ccccc2)c2ccccc2)CC1 | inactive: -3.58%
48 | CC(C)(C)n1nnnc1C(c1ccccc1OC(F)(F)F)N1CCC(n2c(=O)[nH]c3ccccc32)CC1 (centres undefined) | inactive: 0.649%
49 | O=C(NCC1(N2CCCCC2)CCCCC1)c1ccc(OC(F)F)cc1 | inactive: 3.55%
50 | CCN1CCC(Nc2ccc(Cl)cc2)CC1 | inactive: -1.41%
51 | N#CC1(Nc2ccccc2)CCN(CCc2ccccc2)CC1 | inactive: -1.72%
52 | O=c1[nH]c2ccccc2n1C1CCN(C(c2ccccc2OC(F)(F)F)c2nnnn2C2CCCC2)CC1 (centres undefined) | inactive: 4.84%
53 | CSc1ccc(C(=O)NCC2(N3CCOCC3)CCCCC2)cc1 | inactive: -2.41%
54 | O=C(NCC1(N2CCCCC2)CCCCC1)c1cccc([N+](=O)[O-])c1 | inactive: -3.56%
